The target of series [1] is TetR (alternative sigma factor) (Clostridium tetani CN655) (UniProt Q899V5). The experiment in a line: EMSA. The settings on record: recombinant protein; protein details: N-terminal His6 (pET28a); label: 5'-biotin on both primers; probe letters rebuilt from the primers and the genome. On the technique in general: In EMSA bound probe runs differently from free probe, usually more slowly.

The target in series [2] is T1, CodY (Clostridium tetani CN655) (UniProt Q895L3).
T1 sequence (looked up): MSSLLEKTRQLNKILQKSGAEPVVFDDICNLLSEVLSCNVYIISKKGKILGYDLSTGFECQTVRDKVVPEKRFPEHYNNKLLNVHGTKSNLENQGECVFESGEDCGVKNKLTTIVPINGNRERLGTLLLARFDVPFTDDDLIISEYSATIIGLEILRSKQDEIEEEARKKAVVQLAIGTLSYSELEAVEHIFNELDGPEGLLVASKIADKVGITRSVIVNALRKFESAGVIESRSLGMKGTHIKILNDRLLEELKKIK
The experiment in a line: EMSA. Particulars: recombinant protein; residues 1-258; protein details: N-terminal His6 (pET28a); label: 5'-biotin on both primers; probe letters rebuilt from the primers and the genome.

These results are taken from publication PMC7290440.

For some assays here: Protein sequences can lack the tags named with them. For some assays here: For at least one entry, the source does not settle the construct or the ends of the probe.

In the case of “GGTTTTAGCATTAAAAAAATTAGAACCTATAGTAAATAAATTAATTAATATATAGTTTTTATAATTTAATTATGAATAATATTCTTAAGATAAAAAGTAAATTTTTAAAAATTTAAATTTTCAGTTTACAAAAAATAACCTGATTATGTTATATGTAATTGTAAAAAACATATAAAAAATCAGAAAAATTTAGGAGGTATATTATTAATGGATTAAATAATAATTTTTTAATTTACTTTTGATTAATAAATATTAAATGTTTATTTTAATTAGGAGATGATACGTATGCCAATAACCATAAATAATTTTAGATATAGTGATCCTGTTAATAATGATACAATTATTATGATGGAGCCACC (double strand) [Ptent]”, the binding result in series [1] and in series [2] was “binds” in each case.
